{"source": "patent US8877738B2", "about": "“Antipathogenic peptides” (priority 2009, dated 2014)", "key": {"in vitro": {"experiment": "in vitro", "details": "human, 293TT cells", "procedure": "The 293TT cell line derived from human embryonal kidney cells transformed with the SV40 large T antigen was cultured in Dulbecco's modified Eagle's medium (DMEM) (Gibco/BRL, Gaithersburg, Md., USA) supplemented with heat-inactivated 10% bovine serum (Gibco/BRL), Glutamax-I (Invitrogen, Carlsbad, Calif., USA) and nonessential aminoacids. This cell line allows high levels of protein to be expressed from vectors containing the SV40 origin due to overreplication of the expression plasmid (Buck et al., 2004).\nCells were seeded at a density of 5×10^4/well in 24-well plates; the next day they were treated with serially diluted peptides to generate dose-response curves. Forty-eight or 72 h after treatment, cell viability was determined by the 3-(4,5-dimethylthiazol-2-yl)-2,5-diphenyltetrazolium bromide (MTT) method; 50% cytotoxic concentration (CC50) values were determined using Prism."}, "HIV-1IIIb": {"test_system": "HIV-1IIIb", "details": "C8166 cells, day 7 post-infection", "excerpt": "FIG. 8: Quantitative real time RT-PCR analysis of HIV-1 RNA load in HIV-1 infected C8166 cell culture supernatants at day 7 post infection. […] The data are reported as means±SD of three independent experiments performed in duplicate.\nFIG. 9: ELISA HIV-1 p24 protein analysis in HIV-1 infected C8166 cell culture supernatants at day 7 post infection. […] The data are reported as means±SD of three independent experiments performed in duplicate.\nHIV-1 RNA viral load and HIV-1 gag p24 content were determined at day 7 post-infection in the culture supernatants in three independent experiments performed in duplicate. HIV-1 RNA was extracted by Roche high pure viral nucleic acid kit (Roche, Mannheim, Germany) from 200 μl of culture supernatants and then RNA load was assessed by quantitative real time RT-PCR as previously described (Gibellini et al., 2004). In parallel, HIV-1 gag p24 protein amount was determined by ELISA HIV-1 p24 antigen kit (Biomerieux Marcy L'Etoile, France)."}, "C8166 cells": {"test_system": "C8166 cells", "details": "uninfected C8166 cells, Trypan blue exclusion, day 7"}}, "data": [{"molecule": "CC[C@H](C)[C@H](NC(=O)[C@H](CCCNC(=N)N)NC(=O)[C@@H](NC(=O)[C@H](CCCNC(=N)N)NC(=O)[C@H](CC(C)C)NC(=O)[C@H](CO)NC(=O)[C@H](C)N)C(C)C)C(=O)N[C@@H](CCCCN)C(=O)N[C@@H](CCCCN)C(=O)NCCCC[C@H](NC(=O)[C@H](CCCCN)NC(=O)[C@H](CCCCN)NC(=O)[C@@H](NC(=O)[C@H](CCCNC(=N)N)NC(=O)[C@@H](NC(=O)[C@H](CCCNC(=N)N)NC(=O)[C@H](CC(C)C)NC(=O)[C@H](CO)NC(=O)[C@H](C)N)C(C)C)[C@@H](C)CC)C(=O)NCCCC[C@H](NC(=O)[C@H](CCCCNC(=O)[C@H](CCCCN)NC(=O)[C@H](CCCCN)NC(=O)[C@@H](NC(=O)[C@H](CCCNC(=N)N)NC(=O)[C@@H](NC(=O)[C@H](CCCNC(=N)N)NC(=O)[C@H](CC(C)C)NC(=O)[C@H](CO)NC(=O)[C@H](C)N)C(C)C)[C@@H](C)CC)NC(=O)[C@H](CCCCN)NC(=O)[C@H](CCCCN)NC(=O)[C@@H](NC(=O)[C@H](CCCNC(=N)N)NC(=O)[C@@H](NC(=O)[C@H](CCCNC(=N)N)NC(=O)[C@H](CC(C)C)NC(=O)[C@H](CO)NC(=O)[C@H](C)N)C(C)C)[C@@H](C)CC)C(=O)NCCC(N)=O", "note": "[SB105-A10, (ASLRVRIKK)4-Lys2-Lys-β-Ala]", "values": [{"measurement": "CC50", "setting": "in vitro", "result": "> 100", "unit": "µg/mL"}, {"measurement": "50% inhibition of HIV-1IIIb replication (IC50)", "setting": "HIV-1IIIb", "result": 2.5, "unit": "µg/mL"}, {"measurement": "cell survival (C8166 cell viability)", "setting": "C8166 cells", "result": "did not significantly affect"}]}]}
